## Screening data, single-dose tests

Measurements from “University of Dundee, Small-Polar-MMV Screening Library” (2021), ChEMBL document CHEMBL3988442.

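Growth of Mycobacterium tuberculosis over 3 days (7H9 medium with glucose and tyloxapol); the read-out is not stated. Compounds at 500 µM. Higher reads as more growth inhibition (inferred: compounds with an IC50 in retests scored well above the rest). Of about 18,000 compounds tested this way, about 1,400 (7.9%) reached 50% or more in at least one test.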

Each number is a percent effect as filed.
The record does not define 0% and 100%; most values in the screen are far below 50% and negative numbers occur (in some assays of this library far below -100).
This is part of a subset picked to be rich in strong results.

Result for COc1ccc([C@H]2C[C@H](N)C2)cc1F was 61.75%. CN(Cc1ccc(N)nc1)c1ncc(Cl)cn1 read 73.38%. NCC1CCN(C(=O)CCc2ccc(F)cc2)CC1 read 41.53%. For NCc1cccc(C(=O)NCc2ccco2)c1 the result was 55.83%. With COc1cccc(CO)n1 the screen gave 9.882%. COCCN(C)CCNC(=O)c1cccc(Cl)c1 read 11.59%. For OCCCSc1ccncc1NCc1cccc(O)c1 the result was 7.002%. For O=C(c1ccc[nH]1)N(Cc1ccco1)CC1CCCO1 (centres undefined) the result was 21.56%.

With NCCCOc1ncc(C(F)(F)F)cc1Cl the screen gave 74.81%. For Cc1cncc(C(=O)NC(CO)CC(C)(C)C)c1 (centres undefined) the result was 8.768%. With OC(Cn1nnnc1-c1ccccn1)CC(F)(F)F (centres undefined) the screen gave 10.93%. For CSc1nnc(CN(C)CCO)s1 the result was 54.07%. CN(C(=O)CN)c1ccc(-c2ccccc2)cc1 read 82.28%. CCOC(=O)c1ccccc1N1C(=O)C=CC1=O read 105.7%. Result for COC(=O)c1cccc(S(=O)(=O)NC(C)C(N)=O)c1 (centres undefined) was 7.746%. For COc1ccc(CNCCCN2CCCC2=O)cc1 the result was 0.04715%.

Result for CC(C)c1ccc(C(N)CNS(C)(=O)=O)cc1 (centres undefined) was 74.94%. With CCCC(=O)N1CCC2(CC1)NCCc1[nH]cnc12 the screen gave 6.318%. With Cc1cnc(C(=O)Nc2ccn(C)n2)cn1 the screen gave -1.96%. CN(C)S(=O)(=O)c1cccc2nsnc12 gave 3.747%. Result for O=C(CCN1CCCCCC1=O)NCc1ncc[nH]1 was 12.21%. With CC(C)[C@]1(O)CN(Cc2c[nH]cn2)C[C@H]1C the screen gave 18.59%. Cc1cc(C)c(CNC(=O)c2ccc(C)o2)c(=O)[nH]1 read -0.6058%. OCCCNc1cccc(Cl)c1-n1cccn1 gave 55.47%.

Result for COc1c(F)cccc1C(=O)NC(C)c1n[nH]c(C)n1 (centres undefined) was 3.846%. With Nc1nnc(SCC(=O)OC2CCCCC2)[nH]1 the screen gave 7.716%. With CC(C)(C)c1n[nH]cc1CNCCCNS(C)(=O)=O the screen gave 36.66%. Result for Cc1ccc(F)c(S(=O)(=O)N2C[C@H](C3CC3)[C@@H](N)C2)c1 was 52.93%. CCS(=O)(=O)NC1CCN(c2cc(Br)ccn2)CC1 gave 63.36%. With Cc1nc(NCCc2cc[nH]n2)cc(C2CC(O)C2)n1 (centres undefined) the screen gave -8.728%. Cc1nc2ccc(CO)cc2s1 gave 3.767%. COCCOC1CCN(S(=O)(=O)c2cn(C)cn2)CC1 read -0.5821%.

For Cc1n[nH]cc1CNC(C)Cn1cccn1 (centres undefined) the result was -2.925%. Result for CC(C)[C@H](N)C(=O)N1CCC(CCCN(C)C)CC1 was 14.71%. CN(C)C(=O)N1CCN(C(=O)C2CCCNC2)CC1 (centres undefined) gave 8.842%. For O[C@H]1CCN(CC(F)(F)F)C1 the result was -16.25%. Cn1cc(C(N)=O)c(NCc2ccc(F)c(C#N)c2)n1 gave 13.78%. CCCNC(=O)CNc1cc(F)c(OC)c(F)c1 gave 67.17%. CC1CN(C)CCN1Cc1nnnn1-c1ccccc1 (centres undefined) read -1.517%. Result for CCCOc1cccc(NC(=O)C(C)n2cncn2)c1 (centres undefined) was 60.9%.

CCOC(CO)C1CC1 (centres undefined) gave -11.79%. For O=C(CCN1C(=O)CCC1=O)OCC(=O)c1ccc[nH]1 the result was -17.18%. With CN(C(=O)CN1CCCC1=O)C1CCCC1 the screen gave -19.24%. With CN(CCO)C[C@@H]1CN(C(=O)CC2CCC2)C[C@@H]1CO the screen gave 7.167%. Cc1noc(OCC(=O)N(C)C2CC2)n1 read 0.7503%. With COc1ccc(CNCCSc2nnnn2C)cc1 the screen gave 23.3%. For Cc1cc(NC(=O)NC2CCN(C3CC3)CC2)n(C)n1 the result was -4.715%. Result for O=C(Nc1nnc(-c2ccccn2)s1)N1CC[C@@H](O)C1 was -2.959%.

Result for CN(CC(=O)N1CCNC1=O)Cc1ccco1 was -9.014%.

Once more, the final 5:

compound	effect
Cc1noc(OCC(=O)N(C)C2CC2)n1	0.7503%
COc1ccc(CNCCSc2nnnn2C)cc1	23.3%
Cc1cc(NC(=O)NC2CCN(C3CC3)CC2)n(C)n1	-4.715%
O=C(Nc1nnc(-c2ccccn2)s1)N1CC[C@@H](O)C1	-2.959%
CN(CC(=O)N1CCNC1=O)Cc1ccco1	-9.014%